Each structure is given as a SMILES string.

The assay concerns P. falciparum 3D7 (chloroquine-sensitive). The settings on record: 3D7 strain; for Mean IC50: 48 h, SYBR Green I.

As to `O=C1C(O)=C(Nc2ccccc2)C(=O)c2ccccc21` [4a], the “Activity class (superscript on mean IC50)” value is recorded as “a (high activity^a (IC50 ≤ 10 μg/ml))” and the “Mean IC50” value came to 2.99 µg/mL. `COc1ccc(NC2=C(O)C(=O)c3ccccc3C2=O)cc1` [4c]: the “Mean IC50” value amounted to 2.06 µg/mL.

The values are drawn from paper PMC6300878, “In vitro antiplasmodial activity, pharmacokinetic profiles and interference in isoprenoid pathway of 2-aniline-3-hydroxy-1.4-naphthoquinone derivatives” (Malaria Journal, 2018).
